Key:
[1] = Transfer of antimicrobial coating to release liner, LC-MS quantification; conditions: after sterilization, 200 gsm silicone adhesive
[2] = Transfer of antimicrobial coating to release liner, light microscopy; conditions: sprayed from 0.56% by weight solution; after sterilization
[3] = Rolling ball tack test (ASTM D 3121-06) on coated wound contact layers; conditions: for Tackiness (displacement in mm): sterile

Compound | amount of spray coated antimicrobial present on the silicone surface [1] | transfer of coating from silicone surface to release liner (light microscopy) [2] | impact on the tackiness ([3]; 15, 45 and 75 μg/cm^2 vs non-coated control) | Tackiness (displacement in mm) ([3]; theoretical concentration 15 ug/cm2) | Tackiness (displacement in mm) ([3]; theoretical concentration 45 ug/cm2) | Tackiness (displacement in mm) ([3]; theoretical concentration 75 ug/cm2) | amount of antimicrobial transferred to the release liner [1]
N=C(NCCCCCCNC(=N)NC(=N)Nc1ccc(Cl)cc1)NC(=N)Nc1ccc(Cl)cc1 [CHP, chlorhexidine phosphate] | more than 66% | only minor transfer | no significant impact | 13 +/− 4% | 15 +/− 0% | 16 +/− 5% | –
N=C(NCCCCCCNC(=N)NC(=N)Nc1ccc(Cl)cc1)NC(=N)Nc1ccc(Cl)cc1.O=C(O)[C@H](O)[C@@H](O)[C@H](O)[C@H](O)CO.O=C(O)[C@H](O)[C@@H](O)[C@H](O)[C@H](O)CO [CHG, chlorhexidine gluconate] | Less than 36% | majority of the CHG coating transferred | – | – | – | – | more than 64%
